PubChem BioAssay AID624099 | ICCB-Longwood, 2012
Aim: 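Host factors E2 relies on to silence an HPV18 LCR reporter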 (primary screen). Cells: human C33A cervical carcinoma cells (HPV-negative) stably expressing BPV1 E2 and an HPV18 LCR luciferase reporter. Reagents: siRNA pool against human genes, 40 nM. Time to read-out: 72 h. Read-out: 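Per-well luciferase luminescence, z-scored on each plate against the plate mean and SD with control wells left out, then averaged across three replicate plates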. Direction: mean z-score and z-score: higher = stronger reporter signal, weaker E2 silencing. Call rule: 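Mean z ≥ 2 together with z ≥ 2 in two or more of the three replicates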.
The deposit covers about 21,000 reagents; shown is an unselected part. 497 of them (2.4%) were called active. 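Higher z means weaker E2 silencing; only reporter increases were scored, and knock-downs that hurt cell survival may mask genuine repressor factors.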 Entries without a mark were called inactive. Reagents against one gene are numbered here.

| gene | reagent | mean z-score | z-score, replicate A | z-score, replicate B | z-score, replicate C |
| --- | --- | --- | --- | --- | --- |
| NPIPB11 | 1 | -0.58 | -0.44 | -0.83 | -0.48 |
| PRR3 | 1 | -0.08 | -0.35 | 0.05 | 0.07 |
| NUCLEOLIN | 1 | -1.86 | -1.62 | -1.82 | -2.13 |
| PML | 1 | 1.18 | 1.11 | 1.12 | 1.31 |
| MTBP | 1 | -0.55 | -0.45 | -0.57 | -0.63 |
| SMARCA5 | 1 | -0.22 | -0.13 | -0.19 | -0.35 |
| DOC2GP | 1 | 0.17 | 0.11 | 0.11 | 0.29 |
| LOC389323 (retired record) | 1 | -0.85 | -0.75 | -0.93 | -0.88 |
| SEPTIN4 | 1 | 0.6 | 0.58 | 0.54 | 0.68 |
| SEPTIN4 | 2 | 1.1 | 0.92 | 1.21 | 1.16 |
| FUT9 | 1 | 0.27 | 0.79 | 0.16 | -0.15 |
| LOC166994 (retired record) | 1 | -0.54 | -0.18 | -0.83 | -0.6 |
| LEMD1 | 1 | 1.7 | 1.56 | 1.8 | 1.73 |
| SPIN4 | 1 | -0.59 | -0.85 | -0.46 | -0.47 |
| CLNS1A | 1 | -0.92 | -1.08 | -0.81 | -0.87 |
| LOC389695 (retired record) | 1 | 0.02 | 0.12 | 0.06 | -0.11 |
| CHRNB3 | 1 | 0.23 | 0.16 | 0.19 | 0.35 |
| ZNF468 | 1 | 0.54 | 0.42 | 0.51 | 0.69 |
| SCAMP4 | 1 | -0.04 | 0.07 | 0.09 | -0.3 |
| RYK | 1 | -0.51 | -0.57 | -0.49 | -0.47 |
| TNFRSF18 | 1 | -0.93 | -0.67 | -1.17 | -0.94 |
| LOC402720 (retired record) | 1 | 0.54 | 0.35 | 0.26 | 1.03 |
| CDH7 | 1 | -0.1 | -0.18 | 0 | -0.12 |
| GLI4 | 1 | -0.9 | -0.85 | -1.2 | -0.64 |
| NTM-AS1 | 1 | 0.6 | 0.72 | 0.33 | 0.77 |
| PRR7 | 1 | 0.5 | 0.27 | 0.83 | 0.4 |
| MARCO | 1 | 0.05 | -0.13 | -0.19 | 0.48 |
| POLR1E | 1 | 0.57 | 0.75 | 0.55 | 0.42 |
| ESRRA | 1 | -0.05 | 0.08 | -0.05 | -0.19 |
| LOC100129860 (retired record) | 1 | 0.77 | 0.84 | 0.89 | 0.58 |
| LINC02878 | 1 | -0.51 | 0.09 | -0.58 | -1.04 |
| ARAP1 | 1 | 0.79 | 0.94 | 1.04 | 0.38 |

Continued (8 carried over from the part before).
| gene | reagent | mean z-score | z-score, replicate A | z-score, replicate B | z-score, replicate C |
| --- | --- | --- | --- | --- | --- |
| NTM-AS1 | 1 | 0.6 | 0.72 | 0.33 | 0.77 |
| PRR7 | 1 | 0.5 | 0.27 | 0.83 | 0.4 |
| MARCO | 1 | 0.05 | -0.13 | -0.19 | 0.48 |
| POLR1E | 1 | 0.57 | 0.75 | 0.55 | 0.42 |
| ESRRA | 1 | -0.05 | 0.08 | -0.05 | -0.19 |
| LOC100129860 (retired record) | 1 | 0.77 | 0.84 | 0.89 | 0.58 |
| LINC02878 | 1 | -0.51 | 0.09 | -0.58 | -1.04 |
| ARAP1 | 1 | 0.79 | 0.94 | 1.04 | 0.38 |
| GABPB1 | 1 | -0.35 | -0.04 | -0.69 | -0.31 |
| LOC399851 (retired record) | 1 | -0.91 | -0.68 | -1.01 | -1.04 |
| EZH2 | 1 | 0.57 | 0.6 | 0.44 | 0.65 |
| BRD10 | 1 | 1.15 | 1.66 | 0.79 | 0.99 |
| EBF4 | 1 | -0.34 | -0.29 | -0.37 | -0.35 |
| GRAMD2B | 1 | -2.5 | -2.24 | -2.45 | -2.8 |
| LRPPRC | 1 | 1.14 | 1.22 | 1.27 | 0.93 |
| PDXK | 1 | 0.89 | 0.71 | 0.78 | 1.17 |
| PDXK | 2 | 0.17 | -0.14 | 0.33 | 0.31 |
| PDXK | 3 | 0.16 | -0.17 | 0.08 | 0.55 |
| WDR44 | 1 | -1.06 | -1.42 | -0.99 | -0.78 |
| UGP2 | 1 | 1.5 | 1.6 | 1.16 | 1.74 |
| ADGRB2 | 1 | -1.63 | -1.59 | -1.75 | -1.55 |
| SUZ12 | 1 | 0.49 | 0.47 | 0.54 | 0.45 |
| PDE7A | 1 | 0.7 | 0.35 | 0.73 | 1.01 |
| FGF18 | 1 | 0.7 | 0.61 | 1.03 | 0.48 |
| FAM219A | 1 | 1.35 | 1.32 | 1.26 | 1.47 |
| TMEM167B | 1 | 0.24 | 0.17 | 0.62 | -0.08 |
| EPHA8 | 1 | 0.06 | 0.31 | 0.08 | -0.21 |
| H4C6 | 1 | -0.44 | -0.65 | -0.48 | -0.2 |
| MCM9 | 1 | -0.12 | -0.16 | 0.32 | -0.52 |
| LRRC43 | 1 | 0.15 | 0.09 | 0.22 | 0.16 |
| NUDT16L1 | 1 | 1.51 | 1.66 | 1.23 | 1.65 |
| ZFX | 1 | 1.37 | 1.04 | 1.62 | 1.47 |
| FAH | 1 | -1.02 | -1.35 | -1.35 | -0.36 |
